Pooled drug test results. Numbers come from NIAID ChemDB, via PubChem.

All rows: enzyme or target tests; organism: HIV-1; protein: Integrase; read-out: IC50

Lines come from different laboratories, so protocols vary.

SMILES,strain,mutations,read by,value
C[C@H](Cn1cnc2c(=O)[nH]c(N)nc21)OCP(=O)(O)O,-,-,3′ processing,300 µM
C/C=C/[C@@H]1C=C[C@@H]2C[C@H](C)CC[C@H]2[C@]1(C)/C(O)=C1/C(=O)[C@H](CO)N(C)C1=O,-,-,strand transfer,7–15 µM
O=C(O)COc1ccc(S(=O)(=O)c2ccc(OCC(=O)O)c([N+](=O)[O-])c2)cc1[N+](=O)[O-],-,-,3′ processing,70 µM
COc1cc(/C=C/c2ccc3ccc(C(=O)O)c(O)c3n2)cc(O)c1O,-,-,binding / fluorescence,2.2 µM
O=[N+]([O-])c1ccccc1S(=O)(=O)c1ccccc1[N+](=O)[O-],-,-,strand transfer,>100 µM
O=C1c2ccccc2SCC2CSC(c3ccccc3)N12,RF,-,3′ processing,241.5 µM
Nc1ncnc2c1ncn2CCOCP(=O)(O)OP(=O)(O)OP(=O)(O)O,-,-,3′ processing,200 µM
Cc1ccc(C(=O)Oc2ccc(C(c3c(O)c4ccccc4oc3=O)c3c(O)c4ccccc4oc3=O)cc2)cc1,-,-,3′ processing,0.5 µM
O=C1Sc2ccccc2C(=O)N2CCCCC12,RF,-,3′ processing,450.5 µM
Cc1cn(C2CC(N=[N+]=[N-])C(CO)O2)c(=O)n(/C=C/C(=O)/C=C(\O)c2nnnn2Cc2ccc(F)cc2)c1=O,-,-,-,350 µM
O=C(O)C(=O)/C=C(\O)c1cn(Cc2cc(F)ccc2F)c2ccc(F)cc12,-,-,strand transfer / fluorescence,0.5 µM
COc1cc(-c2ccc(O)cc2)c(OC)c(O)c1-c1ccc(O)cc1,-,-,strand transfer,47.7 µM
N#C/C=C1/c2cc(S)cc([N+](=O)[O-])c2-c2c1cc(S(=O)(=O)NCc1ccccc1)cc2[N+](=O)[O-],-,-,ELISA / strand transfer,0.14 µM
COc1cc([C@@H]2c3cc4c(cc3[C@@H](O[C@@H]3O[C@@H]5CO[C@@H](C)O[C@H]5[C@H](O)[C@H]3O)[C@H]3COC(=O)[C@H]23)OCO4)cc(OC)c1O,-,-,3′ processing,>100 µM
Nc1ncnc2c1ncn2CCOCP(=O)(O)O,-,-,3′ processing,840 µM
O=c1c(O)c(-c2ccc(O)c(O)c2)oc2cc(O)c(O)c(O)c12,-,-,-,1 µM
Nc1nc2c(ncn2[C@H]2CC[C@@H](CO)O2)c(=O)[nH]1,-,-,3′ processing,1000 µM
O=C(O)C(=O)CC(=O)c1cccn1Cc1ccc(-c2ccccc2)cc1,-,-,strand transfer,7.5 µM
O=C1c2ccc(O)c(O)c2C(=O)c2c(O)ccc(O)c21,-,-,-,4 µM
COc1cc(C(=O)Oc2c(-c3ccc(Cl)cc3)oc3ccccc3c2=O)ccc1OC(C)=O,-,-,3′ processing,>100 µM
CCOC(=O)C(C(=O)OCC)c1cn(S(=O)(=O)c2ccc(C)cc2)c2ccc(NC(=O)c3cccc([N+](=O)[O-])c3)cc12,-,G140S,strand transfer / fluorescence,20.3 µM
O=Cc1cc(S(=O)(=O)c2ccc(O)c(C=O)c2)ccc1O,-,-,disintegration,5.7 µM
COc1cc(C(=O)Oc2c(-c3ccc(Cl)c(Cl)c3)oc3ccccc3c2=O)ccc1O,-,-,3′ processing,>100 µM
O=C1Sc2ccc(Cl)cc2C(=O)N2CS(=O)CC12,RF,-,3′ processing,237.5 µM
CC1(C)OC(=O)/C(=C/C(=O)c2cn(Cc3cc(F)ccc3F)c3ccc(Br)cc23)O1,-,-,strand transfer / fluorescence,10.5 µM
C/C=C/C=C/[C@H]1C(C)=CC2C[C@@H](C)CC[C@@H]2[C@@]1(C)/C(O)=C1/C(=O)[C@@H](CO)N(C)C1=O,-,-,strand transfer,15–20 µM
CCOC(=O)C(C(=O)OCC)c1cn(S(=O)(=O)c2ccc(C)cc2)c2ccc(NC(=O)c3cc(F)c(F)c(F)c3)cc12,-,-,strand transfer / fluorescence,20.1 µM
Nc1nc2c(ncn2CCOCP(=O)(O)OP(=O)(O)OP(=O)(O)O)c(=O)[nH]1,-,-,3′ processing,82 µM
N=C(CC(=O)c1cn(Cc2ccc(F)cc2)cc1-c1ccccc1)C(=O)O,-,-,3′ processing,8.8 µM
COC(=O)C(=O)OC1(C(=O)O)C[C@@H](OC(=O)/C=C/c2ccc(O)c(O)c2)C(O)[C@H](OC(=O)/C=C/c2ccc(O)c(O)c2)C1,-,-,strand transfer,0.26 µg/mL
COC(=O)C(N)Cc1ccc(O)c(O)c1,-,-,strand transfer,>25 µM
CN(C)S(=O)(=O)N(C)C1CCn2c1nc(C(=O)NCc1ccc(F)cc1)c(O)c2=O,-,-,strand transfer,0.005 µM
C[C@H](CCC(=O)Nc1ccc(S(=O)(=O)c2ccc(NC(=O)CC[C@@H](C)[C@H]3CC[C@H]4[C@@H]5CC[C@H]6C[C@@H](O)CC[C@]6(C)[C@H]5CC(O)[C@]34C)cc2)cc1)[C@H]1CC[C@H]2[C@@H]3CC[C@H]4C[C@@H](O)CC[C@]4(C)[C@H]3CC(O)[C@]12C,-,-,3′ processing,>100 µM
Cc1ccc(S(=O)(=O)n2cc(C(C(=O)O)C(=O)O)c3cc(NC(=O)c4cccc(C)c4O)ccc32)cc1,-,-,strand transfer / fluorescence,25 µM
C[C@@H]1[C@@H](O)[C@H](C)C[C@@H]2C=C[C@H](C)[C@H](/C=C/C=C/C(=O)O)[C@@H]12,-,-,strand transfer,25 µM
COC(O)/C=C/c1ccc2c(c1)c(C(=O)/C=C1\OC(C)(C)OC1=O)cn2Cc1ccc(F)cc1,-,G140S,strand transfer / fluorescence,11.3 µM
O=c1c(O)c(-c2ccc(Cl)c(Cl)c2)oc2ccccc12,-,-,3′ processing,>100 µM
C[C@H](Cn1cnc2c(N)ncnc21)OCP(=O)(O)O,-,-,3′ processing,375 µM
O=C(/C=C/c1ccc(O)c(O)c1)Oc1c(-c2ccc(Cl)c(Cl)c2)oc2ccccc2c1=O,-,-,3′ processing,60 µM
CCOC(=O)C(C(=O)OCC)c1cn(S(=O)(=O)c2ccc(C)cc2)c2ccc(NC(=O)c3ccc(F)cc3Cl)cc12,-,Y143R,strand transfer / fluorescence,>25 µM
Cc1cc(O)c2c(c1)C(=O)C1(C)C(=C2O)C(=O)[C@H]2[C@H](O)[C@H]3[C@@H](O)[C@@H]1C(=O)C1=C(O)c4c(O)cc(C)cc4C(=O)C132,-,-,strand transfer,25 µM
O=S(=O)(c1ccc(I)cc1)c1ccc(I)cc1,-,-,strand transfer,90 µM
O=C(O)C(=O)/C=C(\O)c1cn(Cc2ccc(F)cc2)c2ccc(Br)cc12,-,G140S,strand transfer / fluorescence,0.2 µM
NC(N)=Nc1ccc(S(=O)(=O)c2ccc(N=C(N)N)cc2)cc1,-,-,strand transfer,>100 µM
C=C(CC[C@@H](C)[C@H]1CC=C2C3=C([C@@H](O)[C@H](OC(C)=O)[C@@]21C)[C@@]1(C)C[C@@H](O)[C@H](OS(=O)(=O)O)C(C)(C)[C@@H]1CC3)C(C)C,-,-,strand transfer,9 µM

The last 2 rows once more:

NC(N)=Nc1ccc(S(=O)(=O)c2ccc(N=C(N)N)cc2)cc1 ; read by: strand transfer ; value: >100 µM
C=C(CC[C@@H](C)[C@H]1CC=C2C3=C([C@@H](O)[C@H](OC(C)=O)[C@@]21C)[C@@]1(C)C[C@@H](O)[C@H](OS(=O)(=O)O)C(C)(C)[C@@H]1CC3)C(C)C ; read by: strand transfer ; value: 9 µM

ICn is the concentration giving n% inhibition. Two numbers with a dash give a range or band. An empty or dashed field is not shown.